Measured values from several laboratories, pooled; numbers as filed in NIAID ChemDB.

Common to all: growth or infection tests; species: Candida albicans; endpoint: MIC50

A number after MIC or MFC names an inhibition level or a share of isolates. Blank or dashed fields: not listed here. Lines come from different laboratories, so protocols vary. Two numbers with a dash give a range or band.

CC(C)CCC[C@@H](C)[C@H]1CCC2C3C(=O)C=C4CC(=O)CC[C@]4(C)C3CC[C@@]21C ; strain or isolate: CIP 1663-86 ; value: >50 µg/mL
CC(C)(C)[Si](C)(C)OCC1C=C(c2ccc(Cl)c(Cl)c2)C(=O)O1 ; strain or isolate: ATCC 90028 ; value: >32 µg/mL
CC(C)=CCN=C(N)NCCCCCCCCCNCCCCCCCNC(N)=NCC=C(C)C ; strain or isolate: 4T ; value: 80 µM
C[C@H]1[C@H](O)[C@@H](C)/C=C/C=C/C=C/C=C/C=C/C=C/C=C/[C@H](O[C@@H]2O[C@H](C)[C@@H](O)[C@H](N)[C@@H]2O)C[C@@H]2O[C@](O)(C[C@@H](O)C[C@@H](O)CC[C@H](O)[C@@H](O)C[C@@H](O)CC(=O)O[C@H]1C)C[C@H](O)[C@H]2C(=O)O ; strain or isolate: Fluconazole-resistant 4 isolates pooled ; value: 0.5 µg/mL
CCCCCCCCCCCCCCCC(=O)N[C@H]1C[C@@H](O)[C@@H](O)NC(=O)[C@@H]2[C@@H](O)[C@@H](C)CN2C(=O)[C@H]([C@@H](C)O)NC(=O)[C@H]([C@H](O)[C@@H](O)c2ccc(O)cc2)NC(=O)[C@@H]2C[C@@H](O)CN2C(=O)[C@H]([C@@H](C)O)NC1=O ; strain or isolate: FP582 ; value: 0.06 µg/mL
Clc1ccccc1C(c1ccccc1)(c1ccccc1)n1ccnc1 ; strain or isolate: 16 strains ; value: 0.125 µg/mL
C[C@H]1[C@H](O)[C@@H](C)/C=C/C=C/C=C/C=C/C=C/C=C/C=C/[C@H](O[C@@H]2O[C@H](C)[C@@H](O)[C@H](N)[C@@H]2O)C[C@@H]2O[C@](O)(C[C@@H](O)C[C@@H](O)CC[C@H](O)[C@@H](O)C[C@@H](O)CC(=O)O[C@H]1C)C[C@H](O)[C@H]2C(=O)O ; strain or isolate: 166 isolates ; value: 0.5 µg/mL
OC(Cn1cncn1)(Cn1cncn1)c1ccc(F)cc1F ; setting: 24 h ; strain or isolate: Isolate HR-Micro ; value: 0.19 µg/mL
COc1ccc([C@@H](Cc2ccc(Cl)cc2Cl)n2ccnc2)cc1 ; strain or isolate: 34 strains ; value: 2 µg/mL
C[C@H]1[C@H](O)[C@@H](C)/C=C/C=C/C=C/C=C/C=C/C=C/C=C/[C@H](O[C@@H]2O[C@H](C)[C@@H](O)[C@H](N)[C@@H]2O)C[C@@H]2O[C@](O)(C[C@@H](O)C[C@@H](O)CC[C@H](O)[C@@H](O)C[C@@H](O)CC(=O)O[C@H]1C)C[C@H](O)[C@H]2C(=O)O ; value: 1 µg/mL
COc1ccc(SC2=C(Sc3ccc(OC)cc3)C(=O)c3ccccc3C2=O)cc1 ; value: >3 µg/mL
C[C@@H](c1ncncc1F)[C@](O)(Cn1cncn1)c1ccc(F)cc1F ; value: 0.008 µg/mL
CC(C)(C)C(=O)OCC1C=C(c2ccc(Cl)c(Cl)c2)C(=O)O1 ; strain or isolate: ATCC 90028 ; value: 1 µg/mL
OC(Cn1cncn1)(Cn1cncn1)c1ccc(F)cc1F ; strain or isolate: 2453 strains ; value: 0.25 µg/mL
Nc1[nH]c(=O)ncc1F ; strain or isolate: 166 isolates ; value: 0.25 µg/mL
COc1ccc(C(Cc2ccccc2[N+](=O)[O-])n2ccnc2)cc1 ; strain or isolate: 34 strains ; value: 256 µg/mL
CCC(C)n1ncn(-c2ccc(N3CCN(c4ccc(OC[C@H]5CO[C@](Cn6cncn6)(c6ccc(Cl)cc6Cl)O5)cc4)CC3)cc2)c1=O ; strain or isolate: 32 strains ; value: 0.06 µg/mL
NC(N)=NCCCCCCCCCNCCCCCCCN=C(N)N ; strain or isolate: 15T ; value: 80 µM
COc1ccc(C(Cc2c(Cl)cccc2Cl)n2ccnc2)cc1 ; strain or isolate: 34 strains ; value: 16 µg/mL
CC(C)=CCCNC(N)=NCCCCCCCCCNCCCCCCCN=C(N)N ; strain or isolate: 4T ; value: 80 µM
COc1cc(O)c2c(c1)C(=O)c1c(cc3c(c1O)-c1c(cc(C)c(C(=O)NC(CO)C(=O)O)c1O)[C@H](OC1OC(C)C(O)C(OC4OCC(O)C(O)C4O)C1O)C3O)C2=O ; strain or isolate: 97 isolates ; value: 4 µg/mL
O=S(c1ccccc1)c1c(SBr)c(O)c2ccccc2c1O ; value: 2–3 µg/mL
Clc1ccc(C(Cn2ccnc2)OCc2csc3c(Cl)cccc23)c(Cl)c1 ; strain or isolate: 16 strains ; value: 0.25 µg/mL
CC(C)CCC[C@@H](C)[C@H]1CCC2C3C(=O)C=C4C[C@@H](O)CC[C@]4(C)C3CC[C@@]21C ; strain or isolate: CIP 1663-86 ; value: 1.5 µg/mL
Nc1[nH]c(=O)ncc1F ; strain or isolate: 126 strains ; value: 0.25 µg/mL
C=C(C)CN=C(N)NCCCCCCCN1CCCCCCCCN=C(N)NC1=O ; strain or isolate: 53T ; value: 40 µM
C[C@H]1[C@H](O)[C@@H](C)/C=C/C=C/C=C/C=C/C=C/C=C/C=C/[C@H](O[C@@H]2O[C@H](C)[C@@H](O)[C@H](N)[C@@H]2O)C[C@@H]2O[C@](O)(C[C@@H](O)C[C@@H](O)CC[C@H](O)[C@@H](O)C[C@@H](O)CC(=O)O[C@H]1C)C[C@H](O)[C@H]2C(=O)O ; strain or isolate: 34 isolates ; value: 0.5 µg/mL
CC(=O)N1CCN(c2ccc(OC[C@H]3CO[C@](Cn4ccnc4)(c4ccc(Cl)cc4Cl)O3)cc2)CC1 ; strain or isolate: 126 strains ; value: 0.25 µg/mL
IC(I)=C(I)CC1N=CN=N1 ; strain or isolate: 13 strains ; value: 0.2 µg/mL
CCCCCCCCCCCCCCCC(=O)NC1CC(O)C(O)NC(=O)C2C(O)C(C)CN2C(=O)C(C(O)CC(N)=O)NC(=O)C(C(O)C(O)c2ccc(O)c(OS(=O)(=O)O)c2)NC(=O)C2CC(O)CN2C(=O)C(C(C)O)NC1=O ; strain or isolate: FP578 ; value: 0.008 µg/mL
O=[N+]([O-])Sc1c(S(=O)c2ccccc2)c(O)c2ccccc2c1O ; value: >3 µg/mL
NC(=NCc1ccccc1)NCCCCCCCN1CCCCCCCCN=C(N)NC1=O ; strain or isolate: 4T ; value: 2.5 µM
Nc1[nH]c(=O)ncc1F ; strain or isolate: Fluconazole-susceptible ; value: 0.12 µg/mL
COc1ccc(C(Cc2cccc(F)c2)n2ccnc2)cc1 ; strain or isolate: 34 strains ; value: 128 µg/mL
CC(C)CCC[C@@H](C)[C@H]1CCC2C3C(CC[C@@]21C)[C@@]1(C)CC[C@H](O)CC1=C[C@H]3O ; strain or isolate: CIP 1663-86 ; value: >50 µg/mL
O=C1OC(CO)C=C1c1ccc(Cl)c(Cl)c1 ; strain or isolate: ATCC 90028 ; value: >32 µg/mL
COc1ccc(NC2=C(S(=O)c3ccc(O)cc3)C(=O)c3ccccc3C2=O)cc1 ; value: 0.53–1 µg/mL
CC(C)CCC[C@@H](C)[C@H]1CCC2C3CC(=O)C4C[C@@H](O)CC[C@]4(C)C3CC[C@@]21C ; strain or isolate: CIP 1663-86 ; value: >50 µg/mL

For reference, 2 entries again:

| compound | setting | strain or isolate | value |
|---|---|---|---|
| COc1ccc([C@@H](Cc2ccc(Cl)cc2Cl)n2ccnc2)cc1 |  | 34 strains | 2 µg/mL |
| O=C1OC(CO)C=C1c1ccc(Cl)c(Cl)c1 |  | ATCC 90028 | >32 µg/mL |